Anti-infective test results gathered from many reports (values: NIAID ChemDB through PubChem).

Common to all: enzyme or target tests; agent: HIV-1; protein: Protease

Conditions beyond the fields shown may differ between rows. An empty or dashed field is not shown. ICn is the concentration giving n% inhibition.

structure,read by,measure,strain,changes,result
CC(C)C(NC(=O)[C@@H](NC(=O)OCc1ccccc1)C(C)C)C(F)(F)C(O)C(CC1CCCCC1)NC(=O)[C@@H](NC(=O)OCc1ccccc1)C(C)C,fluorescence,IC50,,,<0.0025 µM
CC(C)[C@H](NC(=O)N(C)Cc1ccccn1)C(=O)N[C@@H](Cc1ccccc1)[C@@H](O)[C@H](O)[C@H](Cc1ccccc1)NC(=O)[C@@H](NC(=O)N(C)Cc1ccccn1)C(C)C,fluorescence,Ki,,,0.001 µM
Cc1cc(C)cc(O[C@@H]2[C@H](O)[C@@H](O)[C@@H](Oc3cc(C)cc(C)c3)[C@@H](Cc3ccccc3)S(=O)(=O)[C@@H]2Cc2ccccc2)c1,fluorescence,IC50,,,<2 µM
CC(C)(C)OC(=O)N[C@@H](Cc1ccccc1)[C@@H](O)C[C@H](Cc1ccccc1)C(=O)N[C@@H](CCC(N)=O)C(=O)N[C@@H](Cc1ccccc1)C(N)=O,absorbance,Ki,,,0.0004 µM
O=S1(=O)[C@H](Cc2ccccc2)[C@H](OCc2cncs2)[C@H](O)[C@@H](O)[C@@H](OCc2cncs2)[C@H]1Cc1ccccc1,fluorescence,IC50,,,<2 µM
CNC(=O)[C@@H](NC(=O)[C@H](OCc1ccccc1)[C@H](O)[C@@H](O)[C@@H](OCc1ccccc1)C(=O)N[C@H]1c2ccccc2C[C@H]1O)C(C)C,,Ki,,,0.000054 µM
CC(C)[C@H](NC(=O)CCc1cccnc1)C(=O)N[C@@H](Cc1ccccc1)[C@@H](O)[C@H](O)[C@H](Cc1ccccc1)NC(=O)[C@@H](NC(=O)CCc1cccnc1)C(C)C,fluorescence,IC50,,,>0.001 µM
Cc1ccc(CO[C@@H]2[C@H](O)[C@@H](O)[C@@H](OCc3ccc(C)cn3)[C@@H](Cc3ccccc3)S(=O)(=O)[C@@H]2Cc2ccccc2)nc1,fluorescence,IC50,,,<2 µM
O=C1N(Cc2ccc(CO)cc2)[C@H](COc2ccccc2)[C@H](O)[C@@H](O)[C@@H](COc2ccccc2)N1Cc1ccc(CO)cc1,fluorescence,Ki,IIIB,,0.00023 µM
O=S1(=O)[C@H](Cc2ccccc2)[C@H](OCc2cccc(Br)c2)[C@H](O)[C@@H](O)[C@@H](OCc2cccc(Br)c2)[C@H]1Cc1ccccc1,fluorescence,IC50,,,<2 µM
CC[C@H](C)[C@H](NC(=O)[C@H](Cc1ccccc1)C[C@H](O)[C@H](Cc1ccccc1)NC(=O)OC(C)(C)C)C(=O)N[C@@H](Cc1ccccc1)C(N)=O,absorbance,Ki,,,0.00022 µM
CCC(C)[C@H](NC(=O)CCCCCCCCCCCCCCC(=O)N[C@H](C(=O)N[C@@H](CC(C)C)C(=O)N[C@@H](CC(N)=O)C(=O)N[C@@H](Cc1ccccc1)C(=O)O)C(C)O)C(=O)N[C@H](C(=O)N[C@@H](CC(C)C)C(=O)N[C@@H](Cc1c[nH]c2ccccc12)C(=O)O)C(C)O,fluorescence,Ki,,,0.67 µM
CC(C)(O)c1cccc(CN2C(=O)N(Cc3cccc(C(C)(C)O)c3)[C@H](Cc3ccccc3)[C@H](O)[C@@H](O)[C@H]2Cc2ccccc2)c1,,IC50,RF,,0.015 µM
CC(C)CC(NC(=O)[C@@H](NC(=O)OCc1ccccc1)C(C)C)C(=O)C(F)(F)C(NC(=O)[C@@H](NC(=O)OCc1ccccc1)C(C)C)C(C)C,fluorescence,IC50,,,<0.001 µM
O=[N+]([O-])c1ccc(CO[C@@H]2[C@H](O)[C@@H](O)[C@@H](OCc3ccc([N+](=O)[O-])c(C(F)(F)F)c3)[C@@H](Cc3ccccc3)S(=O)(=O)[C@@H]2Cc2ccccc2)cc1C(F)(F)F,fluorescence,IC50,,,<2 µM
CC(C)(C)OC(=O)N[C@@H](Cc1ccccc1)[C@@H](O)[C@H](O)[C@H](Cc1ccccc1)NC(=O)OC(C)(C)C,fluorescence,IC50,,,<0.1 µM
O=S1(=O)[C@H](Cc2ccccc2)[C@H](OCc2cccc(OCc3ccccc3)c2)[C@H](O)[C@@H](O)[C@@H](OCc2cccc(OCc3ccccc3)c2)[C@H]1Cc1ccccc1,fluorescence,IC50,,,<2 µM
O=C1C[C@@H](c2ccc(O)cc2)Oc2cc(O)cc(O)c21,HPLC / fluorescence,IC50,SF2,,165 µM
O=S1(=O)N(Cc2cccc(I)c2)[C@H](COc2ccccc2)[C@H](O)[C@@H](O)[C@@H](COc2ccccc2)N1Cc1cccc(I)c1,,Ki,,,0.012 µM
O=S1(=O)[C@H](Cc2ccccc2)[C@H](OCc2ccncc2)[C@H](O)[C@@H](O)[C@@H](OCc2ccncc2)[C@H]1Cc1ccccc1,fluorescence,IC50,,,<2 µM
CC(C)(O)c1ccc(CN2C(=O)N(Cc3ccc(C(C)(C)O)cc3)[C@H](Cc3ccccc3)[C@H](O)[C@@H](O)[C@H]2Cc2ccccc2)cc1,fluorescence,Ki,,,0.0022 µM
O=c1c(O)c(-c2ccc(O)c(O)c2)oc2cc(O)c(O)c(O)c12,HPLC / fluorescence,IC50,SF2,,1000 µM
CC(C)[C@H](NC(=O)N(C)Cc1ccccn1)C(=O)N[C@@H](Cc1ccccc1)[C@H](O)[C@H](O)[C@H](Cc1ccccc1)NC(=O)[C@@H](NC(=O)N(C)Cc1ccccn1)C(C)C,fluorescence,Ki,,PR-M46I,0.00012 µM
CC(C)[C@H](NC(=O)OCCN1CCCC1)C(=O)N[C@@H](Cc1ccccc1)[C@@H](O)[C@H](Cc1ccccc1)NC(=O)[C@@H](NC(=O)OCc1ccccc1)C(C)C,fluorescence,IC50,,,>0.005 µM
C/C(=N\O)c1cccc(CN2[C@H](COc3ccccc3)[C@H](O)[C@@H](O)[C@@H](COc3ccccc3)N(Cc3cccc(/C(C)=N/O)c3)S2(=O)=O)c1,,Ki,,PR-G48V L90M,0.11 µM
CN(C)c1nc(CO[C@@H]2[C@H](O)[C@@H](O)[C@@H](OCc3csc(N(C)C)n3)[C@@H](Cc3ccccc3)S(=O)(=O)[C@@H]2Cc2ccccc2)cs1,fluorescence,IC50,,,<2 µM
CC(C)(C)OC(=O)N[C@@H](Cc1ccccc1)[C@@H](O)CN[C@@H](Cc1ccccc1)C(=O)N[C@@H](CCC(=O)O)C(=O)N[C@@H](Cc1ccccc1)C(N)=O,absorbance,Ki,,,0.0001 µM
O=c1c(O)c(-c2ccccc2O)oc2ccccc12,HPLC / fluorescence,IC50,SF2,,12 µM
CC(C)(C)OC(=O)N[C@@H](Cc1ccccc1)[C@H](O)CNC[C@@H](O)[C@H](Cc1ccccc1)NC(=O)OC(C)(C)C,substrate cleavage,Ki,,,0.1 µM
COc1cc(-c2cc(=O)c3c(O)c(OC)c(OC)c(OC)c3o2)cc(OC)c1OC,HPLC / fluorescence,IC50,SF2,,190 µM
CC(C)[C@H](NC(=O)CN1CCOCC1)C(=O)N[C@@H](Cc1ccccc1)C(O)[C@H](Cc1ccccc1)NC(=O)[C@@H](NC(=O)OCc1ccccc1)C(C)C,fluorescence,IC50,,,<0.005 µM
O=c1cc(-c2ccccc2)oc2cc(O)cc(O)c12,HPLC / fluorescence,IC50,SF2,,125 µM
CC(C)(C)OC(=O)N[C@@H](Cc1ccccc1)[C@H](O)C[C@H](Cc1ccccc1)C(=O)N[C@@H](CCC(N)=O)C(=O)N[C@@H](Cc1ccccc1)C(N)=O,absorbance,Ki,,,0.019 µM
O=C(O)c1cc(=O)c2c(OCC(O)COc3cccc4oc(C(=O)O)cc(=O)c34)cccc2o1,HPLC / fluorescence,IC50,SF2,,290 µM
CNC(=O)c1cccc(CN2[C@H](COc3ccccc3)[C@H](O)[C@@H](O)[C@@H](COc3ccccc3)N(Cc3cccc(C(=O)NC)c3)S2(=O)=O)c1,,Ki,,PR-V82A,0.39 µM
O=c1cc(-c2ccccc2)oc2c(O)c(O)ccc12,HPLC / fluorescence,IC50,SF2,,100 µM
O=[N+]([O-])c1cccc(CO[C@@H]2[C@H](O)[C@@H](O)[C@@H](OCc3cccc([N+](=O)[O-])c3)[C@@H](Cc3ccccc3)S(=O)(=O)[C@@H]2Cc2ccccc2)c1,fluorescence,IC50,,,<2 µM

The first 2 rows once more:

structure,read by,measure,strain,changes,result
CC(C)C(NC(=O)[C@@H](NC(=O)OCc1ccccc1)C(C)C)C(F)(F)C(O)C(CC1CCCCC1)NC(=O)[C@@H](NC(=O)OCc1ccccc1)C(C)C,fluorescence,IC50,,,<0.0025 µM
CC(C)[C@H](NC(=O)N(C)Cc1ccccn1)C(=O)N[C@@H](Cc1ccccc1)[C@@H](O)[C@H](O)[C@H](Cc1ccccc1)NC(=O)[C@@H](NC(=O)N(C)Cc1ccccn1)C(C)C,fluorescence,Ki,,,0.001 µM